Anti-infective test results gathered from many reports (values: NIAID ChemDB through PubChem).

Shared fields: growth or infection tests; agent: Herpes simplex virus 1; read by: plaque count; read-out: EC50

An empty or dashed field is not shown. ECn is the concentration giving n% inhibition of infection, replication or growth. Rows are shuffled and stem from different studies.

structure | cell line | strain | value
NC(=O)c1cn([C@@H]2C[C@H](CO)C[C@H]2O)nn1 | VERO | F | >100 µM
O=C(O)P(=O)(O)O | GMK |  | >12.5 µg/mL
NC(=O)c1cn([C@@H]2O[C@H](CO)[C@@H](O)[C@@H]2O)c2ncnc(N)c12 | BSC-1 | S-148 | 16 µM
COC(=O)[C@]1(C)CCC[C@@]2(C)[C@H]1[C@H](OC(=O)c1ccccc1)CC1CC(=O)[C@]3(C)CC[C@]12C3 | HeLa | F | 6.7 µM
CCCCCc1ccc(-c2cc3cn(C/C=C/C(O)CO)c(=O)nc3o2)cc1 | VERO | F | >100 µM
COC(=O)c1cn([C@@H]2C[C@H](CCP(=O)(O)O)C[C@H]2O)nn1 | VERO | F | >100 µM
O=c1[nH]c(=O)n([C@H]2C[C@H](O)[C@@H](CO)O2)cc1F | MRC-5 | TK- | >385 µM
CCCCCCCCc1cc2cn(CC=C(CO)CO)c(=O)nc2o1 | VERO | F | 7.3 µM
O=c1[nH]c(=S)n([C@@H]2O[C@H](CO)[C@@H](O)[C@@H]2O)cc1Br | RPMI8226 | KOS | 3.5 µM
CCCCCC#Cc1cn(COCCO)c(=O)[nH]c1=O | VERO | F | >100 µM
COC(=O)c1cn([C@@H]2C[C@H](CO)C[C@H]2O)nn1 | VERO | F | >100 µM
COc1ccc2nc3cc(Cl)ccc3c(NC[C@@H]3CCCN4CCCC[C@H]34)c2c1 | VERO 76 |  | >11 µM
Cc1cn([C@@H]2O[C@H](CO)[C@@H](O)[C@@H]2O)c(=S)[nH]c1=O | RPMI8226 | KOS | 9.9 µM
Nc1ncnc2c1ccn2[C@@H]1O[C@H](CO)[C@@H](O)[C@@H]1O | BSC-1 | S-148 | 320 µM
Nc1c2c(-c3ccc(Br)cc3)c3c(=O)[nH]c(=O)[nH]c3nc2nc(=S)n1-c1ccccc1 | VERO |  | 10 µg/mL
Nc1c2ccccc2nc2ccccc12 | VERO 76 |  | >8 µM
CCCCCCCCC#Cc1cn(COCCO)c(=O)[nH]c1=O | VERO | F | >100 µM
O=C(NC[C@H]1O[C@@H](n2cc(I)c(=O)[nH]c2=O)C[C@@H]1O)c1ccccc1 | BHK |  | >0.04 µM
C[C@@]12CC[C@]3(C1)C(C[C@H]2O)C[C@@H](OC(=O)c1ccccc1)[C@H]1[C@](C)(C(=O)O)CCC[C@@]13C | HeLa | F | 13.4 µM
NC[C@H]1O[C@@H](n2ccc(=O)[nH]c2=O)C[C@@H]1O | BHK |  | >2 µM
N#Cc1c(Cl)nc2nc(Cl)nc(Cl)c2c1-c1ccc(Br)cc1 | VERO |  | 50 µg/mL
[N-]=[N+]=NC[C@H]1O[C@@H](n2cc(I)c(=O)[nH]c2=O)C[C@@H]1O | BHK |  | >0.5 µM
C[C@@]12CC[C@]3(C1)C(C[C@@H](O)[C@H]1[C@](C)(C(=O)O)CCC[C@@]13C)C[C@H]2O | HeLa | F | 95.2 µM
COc1ccc2nc3cc(Cl)ccc3c(NCCCO)c2c1 | VERO 76 |  | >100 µM
O=c1[nH]c(=S)n([C@H]2C[C@H](O)[C@@H](CO)O2)cc1I | MRC-5 | TK- | >271 µM
CC(C)CC(=O)NC[C@H]1O[C@@H](n2cc(I)c(=O)[nH]c2=O)C[C@@H]1OC(=O)CC(C)C | BHK |  | >0.2 µM
O=C(O)P(=O)(O)O | SIRC | KJ502 | <100 µM
COc1ccc2nc3cc(Cl)ccc3c(NCCO)c2c1 | VERO 76 |  | >4 µM
COc1ccc(-c2c3c(N)n(-c4ccccc4)c(=S)nc3nc3[nH]c(=O)[nH]c(=O)c23)cc1OC | VERO |  | 16 µg/mL
O=c1[nH]c(=S)n([C@@H]2O[C@H](CO)[C@@H](O)[C@@H]2O)cc1I | MRC-5 | TK- | 240 µM
COc1ccc(-c2c(C#N)c(NC(=S)Nc3ccccc3)nc3[nH]c(=O)[nH]c(=O)c23)cc1OC | VERO |  | 20 µg/mL
O=c1[nH]c(=O)n(COCCO)cc1C#Cc1ccccc1 | VERO | F | >100 µM
N#Cc1c(NC(=S)Nc2ccccc2)nc2[nH]c(=O)[nH]c(=O)c2c1-c1ccc(Br)cc1 | VERO |  | 14 µg/mL
C[C@@]12CC[C@]3(C1)C(C[C@@H](OC(=O)c1ccccc1)[C@H]1[C@@](CO)(C(=O)O)CCC[C@@]13C)C[C@@H]2O | HeLa | F | 1.7 µM
O=C(O)CP(=O)(O)O |  |  | 20 µM
C[C@@]1(CO)[C@H](O)CC[C@@]2(C)[C@H]1CC[C@H]1C[C@@H]3C[C@@]12CC[C@]3(O)CO | VERO |  | 2.1 µg/mL
NC(=O)c1cn([C@@H]2C[C@H](CCP(=O)(O)O)C[C@H]2O)nn1 | VERO | F | >100 µM
CC(C)CC(=O)NC[C@H]1O[C@@H](n2cc(I)c(=O)[nH]c2=O)C[C@@H]1O | BHK |  | >0.5 µM